Anti-infective test results gathered from many reports (values: NIAID ChemDB through PubChem).

Shared fields: tests on isolated targets; agent: HIV-1; target: Reverse transcriptase; measure: IC50

Rows are shuffled and stem from different studies.

{"compound": "CCN1c2ncc(CCc3cc[n+]([O-])cc3)cc2C(=O)N(C)c2ccc(Cl)nc21", "strain or isolate": "WT", "read by": "nucleotide incorporation / radiometric", "result": "<1 µM"}
{"compound": "CC(=O)Oc1c(OC(C)C(C)=O)ccc2c1C(=O)c1ccccc1C2=O", "changes": "Y181C", "result": ">100 µM"}
{"compound": "Cc1cc(C)cc(S(=O)(=O)c2c(C(N)=O)[nH]c3ccc(F)c(F)c23)c1", "strain or isolate": "WT", "read by": "nucleotide incorporation / radiometric", "result": "0.0022 µM"}
{"compound": "C=CCOc1ccc2c(c1OC(C)=O)C(=O)c1ccccc1C2=O", "changes": "K103N", "result": "100 µM"}
{"compound": "CC(C)(C)c1ccc(-n2nnnc2SCC(=O)Nc2ccccc2Cl)c(Br)c1", "read by": "fluorescence", "result": "<0.05 µM"}
{"compound": "CCN1c2ncc(CCc3ccncc3)cc2C(=O)N(C)c2ccc(F)nc21", "changes": "RT-Y181C", "read by": "nucleotide incorporation / radiometric", "result": "<1 µM"}
{"compound": "N#Cc1cc(Cl)cc(Oc2cc(F)c(Cl)c(OCc3nnc4n(O)cccc3-4)c2)c1", "read by": "nucleotide incorporation / radiometric", "result": "<20 µM"}
{"compound": "Cc1cc(C)cc(S(=O)(=O)c2c(C(=O)NC(C)C(N)=O)[nH]c3ccc(Cl)cc23)c1", "changes": "NNRTI-resistant (RT K103N)", "read by": "RT activity", "result": "0.782 µM"}
{"compound": "F/C(=C\\c1ccccc1Cl)CSc1nnnn1-c1cccc2ccccc12", "read by": "fluorescence", "result": "≥0.1 µM"}
{"compound": "CC(=O)COc1ccc2c(c1OCC(C)=O)C(=O)c1ccccc1C2=O", "changes": "Y181C", "result": ">100 µM"}
{"compound": "N#Cc1cc(Cl)cc(Oc2cc(OCc3[nH]nc4nc(N5CCNCC5)ccc34)ccc2Cl)c1", "read by": "nucleotide incorporation / radiometric", "result": "<20 µM"}
{"compound": "CCN1c2ncc(CCOc3ccc(C(=O)O)c4c3CCCC4)cc2-c2ncc(C)n2-c2cccnc21", "changes": "RT-K103N Y181C", "read by": "nucleotide incorporation / radiometric", "result": ">0.1 µM"}
{"compound": "CCCCCCCCC(O)C(=O)O[C@H]1CC(C)(C)[C@@H]2CC=C(C=O)C3[C@@H](O)OC(=O)[C@@]32[C@H]1O", "read by": "nucleotide incorporation", "result": ">223 µM"}
{"compound": "CCN1c2ncc(CCc3cccc(NC(N)=O)c3)cc2C(=O)N(C)c2ccc(Cl)nc21", "changes": "RT-Y181C", "read by": "nucleotide incorporation / radiometric", "result": "<1 µM"}
{"compound": "CC(=O)Oc1c(OCC(=O)c2ccccc2)ccc2c1C(=O)c1ccccc1C2=O", "result": "60 µM"}
{"compound": "CCN(CC)c1ccc(-n2nnnc2SCC(=O)Nc2ccc(S(N)(=O)=O)cc2C)c(Cl)c1", "read by": "fluorescence", "result": "0.05–0.1 µM"}
{"compound": "CCc1ccc(-n2c(Br)nnc2SCC(=O)Nc2ccc(C(=O)N[C@H](C(=O)OC)C(C)C)cc2Cl)c2ccccc12", "changes": "RT-Y188L", "read by": "nucleotide incorporation / radiometric", "result": "<0.05 µM"}
{"compound": "CC(=O)Oc1c(OCC(=O)c2ccc(Br)cc2)ccc2c1C(=O)c1ccccc1C2=O", "changes": "K103N", "result": "9 µM"}
{"compound": "CCN1c2ncc(CCOc3ccc(-c4ccc(C(=O)O)c[n+]4[O-])cc3C)cc2C(=O)N(C)c2cccnc21", "strain or isolate": "IIIB", "changes": "RT-K103N Y181C", "read by": "nucleotide incorporation / radiometric", "result": "<0.05 µM"}
{"compound": "CC(C)=CCOc1cc(NC(=S)c2ccoc2C)ccc1Cl", "changes": "RT-E138K(P66)", "result": "0.01 µM"}
{"compound": "O=C(CSc1nnc(Br)n1-c1ccc(C2CC2)cc1C(F)(F)F)Nc1ccc(C(=O)O)cc1Cl", "changes": "RT-Y188L", "read by": "nucleotide incorporation / radiometric", "result": ">0.1 µM"}
{"compound": "CCN1c2ncc(CCOc3ccc(NC(=O)CC4(C(=O)O)CCCC4)cc3C)cc2C(=O)N(C)c2cccnc21", "strain or isolate": "IIIB", "changes": "RT-K103N Y181C", "read by": "nucleotide incorporation / radiometric", "result": ">0.1 µM"}
{"compound": "CC(C)=CCOc1cc(NC(=S)c2ccsc2C)ccc1Cl", "changes": "RT-P236L", "result": "0.3 µM"}
{"compound": "CCc1ccc(-n2c(SCC(=O)Nc3ccc(C(=O)O)cc3Cl)nnc2C(F)(F)F)c2ccccc12", "changes": "RT-Y181C", "read by": "nucleotide incorporation / radiometric", "result": "<0.05 µM"}
{"compound": "CCN1c2ncc(CCc3ccncc3)cc2C(=O)N(C)c2ccc(I)nc21", "strain or isolate": "WT", "read by": "nucleotide incorporation / radiometric", "result": "<1 µM"}
{"compound": "CCN1c2ncc(CCOc3ccc(-c4ccc(Cl)c(C(=O)O)c4)cc3C)cc2C(=O)N(C)c2cccnc21", "strain or isolate": "IIIB", "read by": "nucleotide incorporation / radiometric", "result": "<0.05 µM"}
{"compound": "CCc1ccc(-n2c(Br)nnc2SCC(=O)Nc2ccc(C(=O)NCC(=O)OC)cc2Cl)c2ccccc12", "changes": "RT-Y188L", "read by": "nucleotide incorporation / radiometric", "result": "0.05–0.1 µM"}
{"compound": "COCCNC(=O)c1[nH]c2ccc(Cl)cc2c1Sc1ccccc1", "read by": "nucleotide incorporation", "result": "0.003–0.035 µM"}
{"compound": "CC1C(Sc2nnnn2-c2cccc3ccccc23)C1c1ccccc1Cl", "read by": "fluorescence", "result": "0.05–0.1 µM"}
{"compound": "CCN1c2ncc(CCOc3ccc(-c4cccc(CC(=O)O)c4)cc3)cc2C(=O)N(C)c2cccnc21", "strain or isolate": "IIIB", "changes": "RT-K103N Y181C", "read by": "nucleotide incorporation / radiometric", "result": ">0.1 µM"}
{"compound": "NC(=O)c1[nH]c2ccc(Cl)cc2c1Sc1ccccc1", "read by": "nucleotide incorporation", "result": "0.003–0.035 µM"}
{"compound": "Cc1cc(C)c(-n2nnnc2SCC(=O)c2ccccc2Cl)c(C)c1", "read by": "fluorescence", "result": "≥0.1 µM"}
{"compound": "CCc1cc(NCc2nc3c(C)ccc(C)c3o2)c(=O)[nH]c1C", "changes": "RT-Y181C", "read by": "nucleotide incorporation", "result": "34.5 µM"}
{"compound": "CCC(Oc1ccc2c(c1OC(C)=O)C(=O)c1ccccc1C2=O)C(C)=O", "result": ">100 µM"}
{"compound": "NS(=O)(=O)c1ccc(NC(=O)CNc2cccc(Oc3ccccc3)c2)c(Cl)c1", "read by": "nucleotide incorporation / radiometric", "result": "<20 µM"}
{"compound": "Cn1c(-c2ccc(F)cc2)cs/c1=N\\N=C1\\C(=O)Nc2ccc(Cl)cc21", "read by": "RT activity / nucleotide incorporation / fluorescence", "result": "31 µM"}
{"compound": "CCN1c2ncc(CCOc3ccc4c(c3)C(C)(C)NS4(=O)=O)cc2-c2nccn2-c2c(C)ccnc21", "changes": "RT-K103N Y181C", "read by": "nucleotide incorporation / radiometric", "result": "<0.05 µM"}
{"compound": "CCc1ccc(-n2c(CF)nnc2SCC(=O)Nc2ccc(C(=O)O)cc2Cl)c2ccccc12", "changes": "RT-Y181C", "read by": "nucleotide incorporation / radiometric", "result": "<0.05 µM"}
{"compound": "CC(C)=CCOc1cc(NC(=S)c2ccoc2C)ccc1Cl", "changes": "RT-P236L", "result": "1.1 µM"}
{"compound": "Cn1c(-c2ccc(Cl)cc2)cs/c1=N\\N=C1\\C(=O)Nc2ccccc21", "read by": "RT activity / nucleotide incorporation / fluorescence", "result": "24 µM"}
{"compound": "O=C(CSc1nnnn1-c1ccccc1C(F)F)Nc1ccccc1[N+](=O)[O-]", "changes": "RT-K103N Y181C", "read by": "fluorescence", "result": "≥0.1 µM"}
{"compound": "N#Cc1cc(Cl)cc(Oc2cc(Cl)cc(OCc3nc4cccc(Cl)c4s3)c2)c1", "read by": "nucleotide incorporation / radiometric", "result": "<20 µM"}
{"compound": "Cn1c(-c2ccc(Br)cc2)cs/c1=N\\N=C1\\C(=O)Nc2ccccc21", "read by": "RT activity / nucleotide incorporation / fluorescence", "result": "100 µM"}
{"compound": "Cc1cc(C)c(-n2nnnc2SCC(=O)Nc2ccc3c(c2)OCO3)c(C)c1", "changes": "RT-K103N Y181C", "read by": "fluorescence", "result": "≥0.1 µM"}
{"compound": "CCN1c2ncc(CCOc3cccc4c3CS(=O)(=O)N4)cc2-c2nccn2-c2c(C)ccnc21", "read by": "nucleotide incorporation / radiometric", "result": "<0.05 µM"}
{"compound": "CCCCCCCCC(OC(C)=O)C(=O)O[C@H]1CC(C)(C)[C@@H]2CC=C(C=O)C3[C@@H](O)OC(=O)[C@@]32[C@H]1O", "read by": "nucleotide incorporation", "result": ">197 µM"}
{"compound": "Cn1ccnc1CNC(=O)c1[nH]c2ccc(Cl)cc2c1S(=O)c1ccccc1", "read by": "nucleotide incorporation", "result": "0.003–0.035 µM"}
{"compound": "COc1ccc2c(C)ccc(-n3c(Br)nnc3SCC(=O)Nc3ccc(C(=O)O)cc3Cl)c2c1", "changes": "RT-Y181C", "read by": "nucleotide incorporation / radiometric", "result": "<0.05 µM"}
{"compound": "COc1ccc(-c2cs/c(=N\\N=C3\\C(=O)Nc4ccccc43)n2C)cc1", "read by": "RT activity / nucleotide incorporation / fluorescence", "result": "17.9 µM"}
{"compound": "Cc1cc(C)cc(S(=O)(=O)c2c(C(=O)NC(C)CC(N)=O)[nH]c3ccc(Cl)cc23)c1", "changes": "K103N", "read by": "RT activity", "result": "1.69 µM"}
{"compound": "Cn1c(-c2ccc([N+](=O)[O-])cc2)cs/c1=N\\N=C1\\C(=O)Nc2ccccc21", "read by": "RT activity / nucleotide incorporation / fluorescence", "result": "15.6 µM"}
{"compound": "Cc1cc(C)cc(S(=O)(=O)c2c(C(=O)NCCO)[nH]c3ccc(Cl)cc23)c1", "changes": "RT-Y188L", "read by": "nucleotide incorporation / radiometric", "result": ">40 µM"}
{"compound": "CCOC(=O)CCNC(=O)c1ccc(NC(=O)CSc2nnc(Br)n2-c2ccc(C3CC3)c3ccccc23)c(Cl)c1", "changes": "RT-Y188L", "read by": "nucleotide incorporation / radiometric", "result": "<0.05 µM"}
{"compound": "NC(=O)c1[nH]c2ccc(Cl)cc2c1S(=O)(=O)c1ccccc1", "changes": "RT-L100I", "read by": "nucleotide incorporation / radiometric", "result": "0.1 µM"}
{"compound": "NC(=O)c1[nH]c2ccc(Cl)cc2c1S(=O)c1ccccc1", "read by": "nucleotide incorporation", "result": "0.003–0.035 µM"}
{"compound": "O=C(CSc1nnnn1-c1c(Cl)cccc1Cl)Nc1ccccc1[N+](=O)[O-]", "read by": "fluorescence", "result": "<0.05 µM"}
{"compound": "CCN1c2ncc(CCOc3cccc4c3CS(=O)(=O)N4CC(=O)OC(C)(C)C)cc2-c2nccn2-c2c(C)ccnc21", "changes": "RT-K103N Y181C", "read by": "nucleotide incorporation / radiometric", "result": "0.05–0.1 µM"}
{"compound": "Cc1cc(S(N)(=O)=O)ccc1NC(=O)COc1ccccc1C(=O)c1cc(Cl)cc(C#N)c1", "strain or isolate": "NNRTI-resistant", "changes": "RT-Y181C", "read by": "nucleotide incorporation / radiometric", "result": "0.0059 µM"}
{"compound": "CCN1c2ncc(CCOc3ccc(C(=O)O)cc3C)cc2-c2ncc(C)n2-c2cccnc21", "changes": "RT-K103N Y181C", "read by": "nucleotide incorporation / radiometric", "result": "<0.05 µM"}
{"compound": "Cc1cc(C2CC2)cc(C)c1-n1c(Br)nnc1SCC(=O)Nc1ccc(C(=O)O)cc1Cl", "read by": "nucleotide incorporation / radiometric", "result": "<0.05 µM"}

Two numbers with a dash give a range or band. ICn: concentration for n% inhibition.